Results from CN114395035A.

Key:
[1] = biological target: T1, SARS-CoV-2 Prototype RBD蛋白 (野生型新型冠状病毒刺突蛋白受体结合域段RBD蛋白) (SARS-CoV-2); conditions: remark: other sources report otherwise
[2] = biological target: T1, SARS-CoV-2 Prototype RBD蛋白 …; experiment: SPR (Biacore 8K); conditions: remark: other sources report otherwise

B1: IMCAS-72抗体 (全抗IgG1) (antibody)
heavy: DQVQLVESGGGLVQPGGSLRLSCAASGFTFSSYGMHWVRQAPGKGLEWVAVISYDGSDKYYADSVKGRFTISRDNSKNTLYLQMNSLRAEDTAVYYCARDRDRFGDQGGWFDPWGQGTLVTVSSASTKGPSVFPLAPSSKSTSGGTAALGCLVKDYFPEPVTVSWNSGALTSGVHTFPAVLQSSGLYSLSSVVTVPSSSLGTQTYICNVNHKPSNTKVDKRV[sequence of human IgG1 Fc omitted]
light: [sequence of about 100 residues omitted][sequence of about 100 residues omitted]
最低检测限 [1]: 4 ng/mL | Kd [2]: 0.39 nM
